Experimental findings from publication PMC9162458 are described below.

The data set addresses T1, LiRAD51 (full-length) (Leishmania infantum) (UniProt A4I3C9).
T1 sequence (looked up, limits assumed): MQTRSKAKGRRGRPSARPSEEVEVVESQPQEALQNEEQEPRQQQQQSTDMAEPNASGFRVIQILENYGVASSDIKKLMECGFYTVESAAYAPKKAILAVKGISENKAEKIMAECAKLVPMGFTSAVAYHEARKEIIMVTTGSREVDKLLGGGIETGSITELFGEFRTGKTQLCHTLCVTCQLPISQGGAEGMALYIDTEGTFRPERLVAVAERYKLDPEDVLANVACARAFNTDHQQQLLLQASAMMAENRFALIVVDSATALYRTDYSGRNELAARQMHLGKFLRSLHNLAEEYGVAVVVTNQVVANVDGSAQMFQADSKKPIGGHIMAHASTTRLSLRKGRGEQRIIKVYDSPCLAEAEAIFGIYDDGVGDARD
In words: EMSA. The conditions noted are these: 5 uM LiRAD51, 100 nM DNA, 1 mM ATP, 10 mM Mg acetate, 2 mM CaCl2, no BRC repeat, EMSA: 50 mM HEPES pH 7.4, 150 mM NaCl, 10 mM magnesium acetate, 2 mM CaCl2, 1 mM TCEP, 10 min RT with BRC repeat, then 10 min 37 C with DNA, recombinant protein, single-stranded DNA. In general terms: A gel shift assay detects complexes by their altered migration in electrophoresis.

Construct, isoform or probe ends are uncertain for at least one entry. At least one verdict was read from the data and is not stated in words by the source. Tags and fusion partners may be left off the protein sequences shown.

With “TTTTTTTTTTTTTTTTTTTTTTTTTTTTTTTTTTTTTTTTTTTTTTTTTTTTTTTTTTTT [FAM-dT60]”, the binding result is “binds”.
